Molecular target: hemagglutinin of virus strain Ck/HK/Yu22/02 (H5N1) (avian influenza virus H5N1, UniProt Q6DQ18 1-559)
Test: cell-based or functional assay

B1: 10F7 single chain antibody (scFv)
scFv: QVQLQQPGAELVKPGASVKLSCKASGYTFTSYWMHWVKQRPGQGLEWIGEIDPSDSYTNYNQKFKGKATLTVDKSSSTAYMQLSSLTSEDSAVYYCARGGTGDFHYAMDYWGQGTSVTVSSGGGGSDILMTQSPSSMSVSLGDTVSITCHASQGISSNIGWLQQKPGKSFKGLIYHGTNLEDGVPSRFSGSGSGADYSLTISSLESEDFADYYCVQYVQFPYTFGGGTKLEIKR
Q: B1 was tested. Which “neutralization test: dilution of 10F7 scFv” value did it give?
A: The value was 64 fold dilution.
